This is an account of results in patent US20260102474A1.

In the test the target is Original version (SARS-COV-2) (UniProt P0DTC2). Nature of the test: flow.

In the case of REGN 10933, the EC50 (commonly the concentration giving half of the maximal effect) came out at 0.18 µg/mL.
